Experiment [1] has as its target T1, PenA1 T237A variant (Burkholderia multivorans, UniProt A0A0H3KN52, T250A).
T1 sequence (A0A0H3KN52 28-302 T250A): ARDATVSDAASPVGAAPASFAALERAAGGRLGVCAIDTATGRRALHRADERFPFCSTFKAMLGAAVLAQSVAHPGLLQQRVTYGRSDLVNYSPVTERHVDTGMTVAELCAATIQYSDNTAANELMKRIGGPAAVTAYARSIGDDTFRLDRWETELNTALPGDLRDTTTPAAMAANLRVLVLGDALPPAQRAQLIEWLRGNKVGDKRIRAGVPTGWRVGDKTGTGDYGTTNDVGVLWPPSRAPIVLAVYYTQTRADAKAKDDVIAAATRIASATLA
Kind of experiment: IC50 with crude protein extracts, nitrocefin reporter. The class given is biochemical.

In experiment [2] the target is T2, PenA1 D276A variant (Burkholderia multivorans, UniProt A0A0H3KN52, D287A).
T2 sequence (A0A0H3KN52 28-302 D287A): T1 sequence (A0A0H3KN52 28-302 T250A)
The description is as above. It is filed as biochemical.

Experiment [3] deals with T3, PenA1 N170A variant (Burkholderia multivorans, UniProt A0A0H3KN52, N183A).
T3 sequence (A0A0H3KN52 28-302 N183A): T1 sequence (A0A0H3KN52 28-302 T250A)
The experiment is described as above. It is filed as biochemical.

The target of experiment [4] is T4, PenA1 S130A variant (Burkholderia multivorans, UniProt A0A0H3KN52, S143A).
T4 sequence (A0A0H3KN52 28-302 S143A): T1 sequence (A0A0H3KN52 28-302 T250A)
The experiment is described as above. The class given is biochemical.

Experiment [5] addresses T5, PenA1 K234A variant (Burkholderia multivorans, UniProt A0A0H3KN52, K247A).
T5 sequence (A0A0H3KN52 28-302 K247A): T1 sequence (A0A0H3KN52 28-302 T250A)
The description is as above. The class given is biochemical.

Experiment [6] addresses T6, PenA1 R220A variant (Burkholderia multivorans, UniProt A0A0H3KN52, R233A).
T6 sequence (A0A0H3KN52 28-302 R233A): T1 sequence (A0A0H3KN52 28-302 T250A)
The experiment can be described thus: biochemical.

A value given as a limit tells only on which side of the number the result lay.

Take `NC(=O)[C@@H]1CC[C@@H]2CN1C(=O)N2OS(=O)(=O)O` [avibactam]: the IC50 in experiment [1] is 0.12 µM; in experiment [2] it was 1 µM; in experiment [3], 2.6 µM; in experiment [4] it was more than 500 µM; in experiment [5] it was more than 800 µM; in experiment [6], 31 µM.

Usually IC50 stands for the concentration that inhibits the measured activity by half.

The values above are taken from PMC8324038 (ACS infectious diseases, 2021).
